A mixed list of measured activities; the numbers were collected in NIAID ChemDB.

Shared fields: growth or infection tests; organism: HIV-1; read-out: EC50

Lines come from different laboratories, so protocols vary. Blank or dashed fields: not listed here. ECn: concentration that inhibits the pathogen or its effect by n%.

Cc1ccnc2c1NC(=O)c1cccnc1N2C1CC1 ; mutations: RT-Y181C ; cell line: CEM + CEM-SS ; strain or isolate: Nevirapine-resistant (RT Y181C) ; method: XTT ; value: >38 µM
Cc1ccnc2c1NC(=O)c1cccnc1N2C1CC1 ; cell line: CEM + CEM-SS ; strain or isolate: 4XAZT+Y181C ; method: cytopathic effect / XTT ; value: 0.8 µM
CC(=O)N1CCC(C(=O)N(CCCN2CCC(Cc3ccc(C(N)=O)cc3)CC2)c2ccc(C)c(Cl)c2)CC1 ; cell line: U87 (CD4+ CCR5+) + U87 ; strain or isolate: R5 subtype A_1 recombinant ; method: luciferase ; value: 0.0029 µM
Cc1occc1C(=S)Nc1ccc(Cl)c(/C=N/OC(C)(C)C)c1 ; mutations: RT-Y181C ; cell line: CEM + CEM-SS ; strain or isolate: NL4-3 (RT Y181C) ; method: cytopathic effect / XTT ; value: 0.5 µM
CCCc1cc(=O)oc2c3c(c4c(c12)OC(C)(C)C=C4)O[C@@H](C)[C@H](C)[C@@H]3O ; mutations: RT-T139I ; cell line: CEM + CEM-SS ; strain or isolate: Calanolide A-resistant (RT T139I) ; method: XTT ; value: 4.5 µM
CC[C@@H](C)[C@H](C(=O)O)N1C[C@H](CN2CCC(c3cc(Cc4ccc(S(=O)(=O)c5ccccc5)cc4)nn3CC)CC2)[C@@H](c2cccc(F)c2)C1 ; cell line: HeLa ; strain or isolate: BaL ; method: β-galactosidase ; value: <0.0004 µM
CC(C)=CCN1Cc2cc(Cl)cc3[nH]c(=S)n(c23)C[C@@H]1C ; mutations: RT-L74V T215Y ; cell line: HT4 + HT4 LacZ-1 ; strain or isolate: HIVRTMF (RT L74V) ; method: plaque count ; value: 0.1 µM
Cc1ccnc2c1NC(=O)c1cccnc1N2C1CC1 ; cell line: PBMC ; strain or isolate: CLADE E ; conditions: clinical isolate ; method: cytopathic effect / XTT ; value: 0.007 µM
Cc1cn([C@H]2C[C@H](N=[N+]=[N-])[C@@H](CO)O2)c(=O)[nH]c1=O ; mutations: RT-M41L A62V S68N G112S V118I M184V ; cell line: HeLa ; strain or isolate: Recombinant ; method: luciferase ; value: 0.00608 µM
Cc1ccnc2c1NC(=O)c1cccnc1N2C1CC1 ; cell line: C8166 ; strain or isolate: NL4-3 ; method: p24 / ELISA ; value: 0.01435 µM
CCCc1cc(=O)oc2c3c(c4c(c12)OC(C)(C)C=C4)O[C@H](C)[C@@H](C)[C@@H]3O ; cell line: CEM + CEM-SS ; strain or isolate: RF ; method: XTT ; value: 0.1 µM
O=S(=O)(c1ccccc1)c1ccccc1 ; cell line: CEM + CEM-SS ; strain or isolate: IIIB ; method: cytopathic effect / XTT ; value: 7 µM
COC(=O)N[C@H](C(=O)N[C@@H](Cc1ccccc1)[C@@H](O)CN(Cc1ccc(-c2ccccn2)cc1)NC(=O)[C@@H](NC(=O)OC)C(C)(C)C)C(C)(C)C ; mutations: K112M K113E V128I M200I H219P ; cell line: MT-2 ; strain or isolate: IIIB ; method: p24 / ELISA ; value: 0.0032 µM
Cn1c2ccccc2c2c1cc(C#N)c(=O)n2-c1ccc([N+](=O)[O-])cc1 ; mutations: RT-M41L A62V S68N G112S V118I M184V ; cell line: HeLa ; strain or isolate: Recombinant ; method: luciferase ; value: >0.0451 µM
CC[C@@H](C)[C@H](C(=O)O)N1C[C@H](CN2CCC(c3cc(Cc4ccc5ccccc5c4)nn3CC)CC2)[C@@H](c2cccc(F)c2)C1 ; cell line: HeLa ; strain or isolate: BaL ; conditions: 50% human serum ; method: β-galactosidase ; value: <0.3 µM
C/C=C/CSc1cc(NC(=S)c2ccsc2C)ccc1Cl ; mutations: RT-V108I ; cell line: CEM + CEM-SS ; strain or isolate: Thiazolobenzimidazole-resistant (RT V108I) ; method: cytopathic effect / XTT ; value: 0.9 µM
CCn1nc(Cc2ccc(OC3CCC3)cc2)cc1C1CCN(C[C@H]2CN([C@@H](C(=O)O)C(C)C)C[C@@H]2c2cccc(F)c2)CC1 ; cell line: HeLa ; strain or isolate: BaL ; method: β-galactosidase ; value: <0.0012 µM
Nc1nc(NC2CC2)c2ncn([C@H]3C=C[C@@H](CO)C3)c2n1 ; cell line: HeLa ; strain or isolate: NL4-3 WT ; method: luciferase ; value: 1.65 µM
Cc1ccnc2c1NC(=O)c1cccnc1N2C1CC1 ; mutations: RT-D67N K70R T215Y K219Q L100I ; cell line: MT-4 ; value: <0.4 µM
CO[P@](=O)(c1cc(C)cc(/C=C/C#N)c1)c1c(C(N)=O)[nH]c2ccc(Cl)cc12 ; cell line: PBMC ; strain or isolate: WT (BH10) ; value: 0.0004 µM
CCOc1ccc(Cc2cc(C3CCN(C[C@H]4CN([C@@H](C(=O)O)[C@H](C)CC)C[C@@H]4c4cccc(F)c4)CC3)n(CC)n2)cc1F ; cell line: HeLa ; strain or isolate: BaL ; conditions: 50% human serum ; method: β-galactosidase ; value: <0.033 µM
Cc1cn([C@H]2C[C@H](N=[N+]=[N-])[C@@H](CO)O2)c(=O)[nH]c1=O ; mutations: RT-L100I ; cell line: CEM + CEM-SS ; strain or isolate: Dihydrocostatolide-resistant (RT-L100I) ; method: XTT ; value: 0.003 µM
Cc1cn([C@@H]2O[C@H](CO[Si](C)(C)C(C)(C)C)[C@@]3(OS(=O)(=O)C=C3N)[C@H]2O[Si](C)(C)C(C)(C)C)c(=O)[nH]c1=O ; cell line: CEM + CEM-SS ; strain or isolate: IIIB ; method: cytopathic effect / XTT ; value: 0.05 µM
Cc1ccc(S(=O)(=O)N(CC(C)C)C[C@@H](O)[C@H](Cc2ccccc2)NC(=O)O[C@H]2CO[C@H]3OCC[C@H]32)cc1 ; mutations: D437N L441P ; cell line: MT-2 ; strain or isolate: IIIB ; method: p24 / ELISA ; value: 0.008 µM
Cc1ccnc2c1NC(=O)c1cccnc1N2C1CC1 ; mutations: RT-M41L T215Y K219Q ; cell line: MAGI ; strain or isolate: AZT-resistant (RT M41L T215Y K219Q) RTMN ; method: β-galactosidase ; value: 0.035 µM
Nc1nc(=O)n([C@@H]2CS[C@H](CO)O2)cc1F ; mutations: A114S ; cell line: PBMC ; strain or isolate: Clinical isolate ; method: single cycle / fluorescence ; value: 0.02718 µM
CCOc1cccc(Cc2cc(C3CCN(C[C@H]4CN([C@@H](C(=O)O)C(C)(C)C)C[C@@H]4c4cccc(F)c4)CC3)n(CC)n2)c1 ; cell line: HeLa ; strain or isolate: BaL ; conditions: 50% human serum ; method: β-galactosidase ; value: <0.1 µM
CCOP(=O)(COc1ccc(C[C@H](NC(=O)O[C@H]2CO[C@H]3OCC[C@H]32)[C@H](O)CN(CC(C)C)S(=O)(=O)c2ccc(OC)cc2)cc1)OCC ; mutations: 8374-P62 GS-8374-resistant ; cell line: MT-2 ; strain or isolate: IIIB ; method: ATP ; value: 0.07 µM

Repeating the final 4 entries:

SMILES,mutations,cell line,strain or isolate,conditions,method,value
Cc1ccnc2c1NC(=O)c1cccnc1N2C1CC1,RT-M41L T215Y K219Q,MAGI,AZT-resistant (RT M41L T215Y K219Q) RTMN,,β-galactosidase,0.035 µM
Nc1nc(=O)n([C@@H]2CS[C@H](CO)O2)cc1F,A114S,PBMC,Clinical isolate,,single cycle / fluorescence,0.02718 µM
CCOc1cccc(Cc2cc(C3CCN(C[C@H]4CN([C@@H](C(=O)O)C(C)(C)C)C[C@@H]4c4cccc(F)c4)CC3)n(CC)n2)c1,,HeLa,BaL,50% human serum,β-galactosidase,<0.1 µM
CCOP(=O)(COc1ccc(C[C@H](NC(=O)O[C@H]2CO[C@H]3OCC[C@H]32)[C@H](O)CN(CC(C)C)S(=O)(=O)c2ccc(OC)cc2)cc1)OCC,8374-P62 GS-8374-resistant,MT-2,IIIB,,ATP,0.07 µM